Compound potency records, mixed from different reports. Data source: NIAID ChemDB in PubChem.

Common to all: whole-cell or culture tests; species: Candida albicans

An empty or dashed field is not shown. Lines come from different laboratories, so protocols vary. MIC50, MIC90 and the like: level of inhibition, or share of isolates inhibited. Two numbers with a dash give a range or band. ECn is the concentration giving n% inhibition of infection, replication or growth.

| structure | strain or isolate | read by | read-out | value |
|---|---|---|---|---|
| COc1ccc(-c2cc(C(=O)N/N=C/c3ccc(Br)cc3)c3ccccc3n2)cc1 | ATCC 10231 | - | MIC | 50 µg/mL |
| CC(=O)N1CCN(c2nc3ccc4c(ccc(=O)n4C)c3s2)CC1 | MTCC 183 | - | MIC100 | 62.5 µg/mL |
| C/C(=N/O)C(Cl)(Cl)Cl | - | - | MIC100 | 3220 µM |
| C[C@@H]1Oc2cc(Cl)ccc2/C(=N/OCc2ccc(Cl)cc2Cl)[C@H]1[n+]1cnc[nH]1 | ATCC 10231 | - | MFC | >64 µg/mL |
| O=C(N/N=C/c1ccccc1)c1cc(-c2ccc(Cl)cc2)nc2ccccc12 | ATCC 10231 | - | MIC | 50–100 µg/mL |
| CN1CCN(c2nc3ccc4c(ccc(=O)n4C)c3s2)CC1 | MTCC 183 | - | MIC100 | 100 µg/mL |
| C[C@@H]1Oc2cc(Cl)ccc2/C(=N/OCc2ccc(Cl)cc2Cl)[C@H]1n1ccnc1 | ATCC 10231 | - | MIC | 16 µg/mL |
| CCC(C)c1cc2cc3c(c(O)c2c(=O)n1C)-c1c(O)c2c(c(OC)c1CC3)O[C@H]1[C@@H](C2=O)[C@@H](O)C=C[C@H]1O | - | - | Mean MIC | 0.017 µg/mL |
| O/N=C\c1ccc(O)cc1 | - | broth dilution | MFC | >7290 µM |
| C[C@H](n1nnc(CCN2CCN(c3ccccn3)CC2)n1)[C@](O)(Cn1cncn1)c1ccc(F)cc1F | - | - | MIC | 4 µg/mL |
| CC(=O)N1CCN(c2ccc(OC[C@H]3CO[C@](Cn4ccnc4)(c4ccc(Cl)cc4Cl)O3)cc2)CC1 | ATCC 10231 | broth dilution | MIC | 30 µg/mL |
| CC1CC(C)CN(c2nc3ccc4c(ccc(=O)n4C)c3s2)C1 | MTCC 183 | - | MIC100 | 50 µg/mL |
| CCOc1ccc(NC(=O)OCC(O)CN2CCN(c3cccc(F)c3)CC2)cc1 | CCM 8186 | - | MIC | 780 µg/mL |
| Cc1nc(CC(=O)C(F)(F)F)oc1C | - | - | MIC | >50 µg/mL |
| C[C@@H]1Oc2ccccc2/C(=N/OCc2ccc(Cl)cc2Cl)[C@H]1n1cncn1 | ATCC 10231 | - | MFC | >64 µg/mL |
| C=C(CCCCCNC1NCCC2c3ccc(OC)cc3CCN12)C(C)C | NFI0124 | - | MIC80 | 16 µg/mL |
| Clc1nssc1=Nc1cccc2ncccc12 | ATCC 10231 | - | MFC99 | 32 µg/mL |
| Cc1nn2c(-c3ccncc3)nnc2sc1=NNc1ccc(Cl)cc1 | ATCC 66027 | broth dilution | MIC | 6.25 µg/mL |
| C[C@H](n1nnc(CCN2CCN(c3cccc(C(F)(F)F)c3)CC2)n1)[C@](O)(Cn1cncn1)c1ccc(F)cc1F | V-01-191A-261 (resistant) | - | MIC | 0.5 µg/mL |
| Cn1c(=O)ccc2c3sc(N4CCN(c5ncccn5)CC4)nc3ccc21 | MTCC 183 | - | MIC100 | 100 µg/mL |
| O=C1C(Sc2cccc(Cl)c2)=C(Sc2cccc(Cl)c2)C(=O)c2ncccc21 | ATCC 10231 | - | MIC | 6.3 µg/mL |
| O=C1N[C@H](Cc2ccccc2)C(=O)N2CCC[C@H]12 | MTCC 277 | broth dilution | MIC100 | 128 µg/mL |
| COc1cc(/C=N/NC(=O)c2ccc(NC(C)=O)cc2)ccc1O | ATCC 10231 | broth dilution | EC50 | 240 µM |
| COc1cc(/C=C/c2ccc(O)cc2)cc(OC)c1 | SC5314 | broth dilution | MIC80 | 32 µg/mL |
| O=C1C(Sc2ccccc2F)=C(Sc2ccccc2F)C(=O)c2ncccc21 | ATCC 10231 | - | MIC | 12.5 µg/mL |
| Clc1nssc1=Nc1ccccc1 | ATCC 10231 | - | MFC99 | 16 µg/mL |
| C[C@H](n1nnnc1CCN1CCN(c2ccc([N+](=O)[O-])cc2)CC1)[C@](O)(Cn1cncn1)c1ccc(F)cc1F | - | - | MIC | 2 µg/mL |
| O/N=C\c1ccccc1O | - | - | MIC100 | 1800 µM |
| CSc1nc(C)nc2c1sc(=S)n2-c1ccccc1 | DSM 70443 | - | MIC | >200 µg/mL |
| C[C@H]1[C@H](O)[C@@H](C)/C=C/C=C/C=C/C=C/C=C/C=C/C=C/[C@H](O[C@@H]2O[C@H](C)[C@@H](O)[C@H](N)[C@@H]2O)C[C@@H]2O[C@](O)(C[C@@H](O)C[C@@H](O)CC[C@H](O)[C@@H](O)C[C@@H](O)CC(=O)O[C@H]1C)C[C@H](O)[C@H]2C(=O)O | ATCC 10231 | - | MIC | 5 µg/mL |
| CCCCCOc1ccc(-c2ccc(-c3ccc(C(=O)N[C@H]4C[C@@H](O)[C@@H](O)NC(=O)[C@@H]5[C@@H](O)[C@@H](C)CN5C(=O)[C@H]([C@H](C)O)NC(=O)[C@H]([C@H](O)[C@@H](O)c5ccc(O)cc5)NC(=O)[C@@H]5C[C@@H](O)CN5C(=O)[C@H]([C@H](C)O)NC4=O)cc3)cc2)cc1 | 94-93 | - | MFC | 2 µg/mL |
| CC1CC(C)CN(c2nc3ccc4oc(=O)ccc4c3s2)C1 | MTCC 183 | - | MIC100 | 50 µg/mL |
| C#CC#CC(=O)c1ccccc1C(=O)O | UMRU204 | - | MIC | 40 µg/mL |
| OC(Cn1cncn1)(Cn1cncn1)c1ccc(F)cc1F | ATCC 10231 | broth dilution | EC50 | 1 µM |
| Cc1nc(Nc2ccccc2)c2sc(=S)n(-c3ccccc3)c2n1 | DSM 70443 | - | MIC | 50 µg/mL |
| Cc1nn2c(-c3ccncc3)nnc2s/c1=N/Nc1ccccc1 | ATCC 66027 | broth dilution | MIC | >100 µg/mL |
| COc1ccc2c(c1)CCN1C(NCCCCCCC(C)C)NCCC21 | NFI2103 | - | MIC | 16 µg/mL |
| C[C@@H]1Oc2ccccc2/C(=N/OCc2c(Cl)cccc2Cl)[C@H]1n1ccnc1 | ATCC 10231 | - | MFC | >64 µg/mL |
| COC1=C(C(C)C)C(=O)C2=C(C1=O)C1(C)CCCC(C)(C)C1=CC2OC(C)=O | - | - | MIC | 9.72 µg/mL |
| Clc1nssc1=Nc1cccc2cccnc12 | ATCC 10231 | - | MIC | 16 µg/mL |
| Cn1c(=O)ccc2c3sc(N4CCN(Cc5ccccc5)CC4)nc3ccc21 | MTCC 183 | - | MIC100 | 250 µg/mL |
| Oc1ccccc1Nc1ccc2nc3ccccc3nc2c1 | - | - | MIC | 64 µg/mL |
| C[C@@H]1Oc2ccccc2/C(=N/OCc2ccc(Cl)cc2Cl)[C@H]1n1ccnc1 | ATCC 10231 | - | MFC | >64 µg/mL |
| CC[C@@H]([C@H](C)O)n1ncn(-c2ccc(N3CCN(c4ccc(OC[C@@H]5CO[C@@](Cn6cncn6)(c6ccc(F)cc6F)C5)cc4)CC3)cc2)c1=O | - | - | MIC90 | 0.03–0.06 µg/mL |
| CCCCCSc1nc2ccc(N)cc2s1 | 10 strains | turbidity | EC30 | 40–80 µM |
| CO[C@@H]1[C@@H](C)O[C@@H](OCC23CC4C(C)CCC4C4(C=O)CC2C=C(C(C)C)C43C(=O)O)[C@@H](O)C12OC(=O)[C@H](CCCCCCCC(=O)O)O2 | MY1055 | - | MIC | 6.25 µg/mL |
| Cn1c(=O)ccc2c3sc(N4CCN(C(c5ccccc5)c5ccccc5)CC4)nc3ccc21 | MTCC 183 | - | MIC100 | 200 µg/mL |
| C[C@@H]1Oc2ccccc2/C(=N/OCc2ccc(F)cc2)[C@H]1n1ccnc1 | ATCC 10231 | - | MIC | 8 µg/mL |
| COc1ccc(-c2cc(C(=O)N/N=C/c3ccc([N+](=O)[O-])cc3)c3cc(Cl)ccc3n2)cc1 | ATCC 10231 | - | MIC | 25 µg/mL |
| CC(C)CCCCCCNC1NCCC2c3ccccc3CCN12 | NFI2103 | - | MIC80 | 4 µg/mL |
| O/N=C\c1ccccc1 | - | - | MIC | 4130 µM |
| COc1ccc(-c2cc(C(=O)N/N=C/c3ccc(Cl)cc3)c3cc(Cl)ccc3n2)cc1 | ATCC 10231 | - | MIC | 50 µg/mL |
| CCCCOc1ccc(NC(=O)OCC(O)CN2CCN(c3cccc(F)c3)CC2)cc1 | CCM 8186 | - | MIC | 200 µg/mL |
| Cc1c(O)cccc1C(=O)N[C@@H](CSc1ccccc1)[C@H](O)CN1C[C@H]2CCCC[C@H]2C[C@H]1C(=O)NC(C)(C)C | I131B | - | MIC | 64 µg/mL |
| C[C@@H](c1ncncc1F)[C@](O)(Cn1cncn1)c1ccc(F)cc1F | - | - | EC50 | <5 µg/mL |
| N#CC(CC(=O)O)C(N)C(=O)O | IAM4888 | - | MIC | 25 µg/mL |
| O/N=C\c1ccccc1Cl | - | - | MIC100 | 710 µM |
| OC(Cn1cncn1)(Cn1cncn1)c1ccc(F)cc1F | 1866 | - | MFC | >100 µg/mL |
| O=C(N/N=C/c1ccccc1[N+](=O)[O-])c1cc(-c2ccc(Br)cc2)nc2ccc(Cl)cc12 | ATCC 10231 | - | MIC | 50–100 µg/mL |
| CCCCc1ccccc1N1CCN(CCc2nnnn2[C@@H](C)[C@](O)(Cn2cncn2)c2ccc(F)cc2F)CC1 | - | - | MIC | 0.5 µg/mL |
| CCCCOc1ccc(NC(=O)OCC(O)CN2CCN(c3ccc(F)cc3)CC2)cc1 | CCM 8186 | - | MIC | 780 µg/mL |
| C[C@H](n1nnc(CCN2CCN(c3ccc(Cl)cc3)CC2)n1)[C@](O)(Cn1cncn1)c1ccc(F)cc1F | V-01-191A-261 (resistant) | - | MIC | 2 µg/mL |
| C/C(=N\NC(=S)Nc1cccc([N+](=O)[O-])c1)c1c(O)ccc2c(C)cc(=O)oc12 | - | - | MIC | 15 µg/mL |
| COc1ccc2c(c1)CCN1C(NCCCCCC=C(C)C)NCCC21 | NFI0124 | - | MIC80 | 32 µg/mL |
| OC(Cn1cncn1)(Cn1cncn1)c1ccc(F)cc1F | - | - | EC50 | <5 µg/mL |
| COC1=CC(=O)C[C@@H](C)[C@]12Oc1c(Cl)c(OC)cc(OC)c1C2=O | - | broth dilution | MIC | 6 µg/mL |
| CC(=O)N1CCN(c2ccc(OC[C@H]3CO[C@](Cn4ccnc4)(c4ccc(Cl)cc4Cl)O3)cc2)CC1 | - | - | EC50 | <5 µg/mL |
| Clc1ccc(/C(Cn2ccnc2)=N/Nc2c(Cl)cccc2Cl)s1 | A | - | MIC | 6.2 µg/mL |
| C[C@H](n1nnc(CCN2CCN(c3cccc(Cl)c3)CC2)n1)[C@](O)(Cn1cncn1)c1ccc(F)cc1F | V-01-191A-261 (resistant) | - | MIC | 4 µg/mL |
| c1ccc(-c2ccc(C(c3ccccc3)n3ccnc3)cc2)cc1 | ATCC 10231 | - | MIC50 | 10 µg/mL |
| O=C1C(Sc2ccccc2Cl)=C(Sc2ccccc2Cl)C(=O)c2ncccc21 | ATCC 10231 | - | MIC | 25 µg/mL |
| COc1ccc(-c2cc(C(=O)N/N=C/c3ccccc3)c3ccccc3n2)cc1 | ATCC 10231 | - | MIC | 100–200 µg/mL |
| Cc1nc(NC2CC2)c2sc(=S)n(-c3ccccc3)c2n1 | DSM 70443 | - | MIC | 80 µg/mL |
| O=c1ccc2c(ccc3nc(N4CCN(c5ncccn5)CC4)sc32)o1 | MTCC 183 | - | MIC100 | 100 µg/mL |
| Cc1cccc(SC2=C(Sc3cccc(C)c3)C(=O)c3ncccc3C2=O)c1 | ATCC 10231 | - | MIC | 12.5 µg/mL |
| C[C@@H](c1ncncc1F)[C@](O)(Cn1cncn1)c1ccc(F)cc1F | OY-2-76 fluconazole-susceptible | - | MIC | 0.003 µg/mL |
| COc1ccc(/C=N/O)cc1 | - | - | MIC | >6620 µM |
| COc1cc(CCCO[C@@H]2O[C@H](CO)[C@@H](O)[C@H](O)[C@H]2O)cc2cc(-c3ccc4c(c3)OCO4)oc12 | ICB 12 | - | MIC | 15 µg/mL |
| Cc1nc(=S)c2sc(=S)n(-c3ccccc3)c2[nH]1 | DSM 70443 | - | MIC | 80 µg/mL |
| C[C@H](n1nnc(CCN2CCN(c3ccc([N+](=O)[O-])cc3)CC2)n1)[C@](O)(Cn1cncn1)c1ccc(F)cc1F | V-01-191A-261 (resistant) | - | MIC | 2 µg/mL |
| Cc1ccc(-c2cc(C(=O)N/N=C/c3ccc(Cl)cc3)c3ccccc3n2)cc1 | ATCC 10231 | - | MIC | 50–100 µg/mL |
| COc1ccc(-c2cc3cc(CCCO[C@@H]4O[C@H](CO)[C@@H](O)[C@H](O)[C@H]4O)cc(OC)c3o2)cc1OC | ICB 12 | - | MIC | 20 µg/mL |
| Cc1nc2c(sc(=S)n2-c2ccccc2)c(=O)n1N | DSM 70443 | - | MIC | 20 µg/mL |